Results of unrelated studies side by side (data: NIAID ChemDB).

Shared fields: whole-cell or culture tests; species: Influenza B virus; method: cytopathic effect; measure: EC50

Lines come from different laboratories, so protocols vary. ECn is the concentration giving n% inhibition of infection, replication or growth. Blank or dashed fields: not listed here.

compound | strain | cell line | value
NC12CC3CC(CC(C3)C1)C2 | B/LEE/40 | MDCK | >320 µg/mL
C1CCC(C23CC4CC(CC(C4)C2)C3)NC1 |  | MDCK | >978 µM
O=C(NCCc1c[nH]c2ccccc12)C1=Cc2ccncc2CC1 |  | MDCK | 23 µM
Clc1ccc(-c2csc(N3N=C(c4cccs4)CC3c3ccc(Cl)cc3)n2)cc1 | Singapore/22/79 | MDCK | >200 µg/mL
CC(C)CCCC(C)C1CCC2C3CC=C4CC(OC(=O)Nc5ccc(S(=O)(=O)O)c6cccc(S(=O)(=O)O)c56)CCC4(C)C3CCC12C | Singapore/222/79 | MDCK | >200 µM
CCOC(=O)C1=C[C@@H](OC2CCCCC2)[C@H](NC(C)=O)[C@@H](N)C1 | B/HK/5/72 | MDCK cells | 45 µM
Nc1ccc(S(=O)(=O)O)c2ccccc12 | Singapore/222/79 | MDCK | >200 µM
CN1CCCCC1C12CC3CC(CC(C3)C1)C2 |  | MDCK | >928 µM
C[C@H]1C[C@@H](n2cnc3c(N)ncnc32)[C@H](O)[C@@H]1O | Singapore | MDCK | >100 µg/mL
NC(=O)c1ncn([C@@H]2O[C@H](CO)[C@@H](O)[C@H]2O)n1 | B/HK/5/72 | MDCK cells | 9 µM
C1CCN(CCN2CCCCC2C23CC4CC(CC(C4)C2)C3)CC1 |  | MDCK | >561 µM
Nc1ccc(S(=O)(=O)O)c2cccc(S(=O)(=O)O)c12 | Singapore/222/79 | MDCK | >200 µM
c1ccc(CN2CCCCC2C23CC4CC(CC(C4)C2)C3)cc1 |  | MDCK | >724 µM
NC12CC3CC(CC(C3)C1)C2 | B/HK/5/72 | MDCK cell | >500 µM
NC(=O)c1ncn([C@@H]2O[C@H](CO)[C@@H](O)[C@H]2O)n1 |  | MDCK | >19.9 µM
NC(=O)c1ncn([C@@H]2O[C@H](CO)[C@@H](O)[C@H]2O)n1 | Singapore | MDCK | 9 µg/mL
Nc1nccc2c1ncn2[C@@H]1C[C@H](CO)[C@@H](O)[C@H]1O |  | MDCK | >16 µg/mL
CCOC(=O)C12CC3CC(CC(C3)C1)C2 |  | MDCK | >196 µM

2 of the rows above, restated:

CCOC(=O)C12CC3CC(CC(C3)C1)C2 ; cell line: MDCK ; value: >196 µM
Nc1nccc2c1ncn2[C@@H]1C[C@H](CO)[C@@H](O)[C@H]1O ; cell line: MDCK ; value: >16 µg/mL